{"source": "PubChem BioAssay AID1224833 (University of Georgia, 2016)", "purpose": "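Human genes whose knock-down alters rotavirus replication in monkey cells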 (primary screen)", "cells": "monkey MA104 kidney cells", "reagents": "siRNA pool against human genes, 50 nM", "duration": "48 h knock-down before infection; read 24 h after infection", "challenge": "infection with rotavirus strain RV3 two days after transfection; infectious dose for this stage not given", "measurement": "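Rotavirus antigen per well by fluorescent immunoassay, normalised to non-targeting control wells on each plate and given as a standard z-score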", "reading the numbers": "z-score vs non-targeting control: higher = more rotavirus replication than with non-targeting control", "hit rule": "In these data the active calls have z-score vs non-targeting control at about -1 or lower, or at about 1 or higher", "calls": "active = z-score beyond 1 either way; inactive = z-score within 1 of zero", "note": "The deposit covers about 12,000 reagents; shown is a part drawn at random. About 5,600 of them (46%) count as active. 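Active calls cover z-scores past 1 in both directions, so they include lowered as well as raised rotavirus replication.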"}
{"target gene": "KIF2B (GeneID 84643)", "z-score vs non-targeting control": -1.25, "Outcome": "active"}
{"target gene": "ZNF804A (GeneID 91752)", "z-score vs non-targeting control": -3.57, "Outcome": "active"}
{"target gene": "CEP68 (GeneID 23177)", "z-score vs non-targeting control": -1.86, "Outcome": "active"}
{"target gene": "CFAP184 (GeneID 257236)", "z-score vs non-targeting control": 1.68, "Outcome": "active"}
{"target gene": "SPATA31E1 (GeneID 286234)", "z-score vs non-targeting control": -2.02, "Outcome": "active"}
{"target gene": "CLEC7A (GeneID 64581)", "z-score vs non-targeting control": 0.555, "Outcome": "inactive"}
{"target gene": "FAM78A (GeneID 286336)", "z-score vs non-targeting control": -0.769, "Outcome": "inactive"}
{"target gene": "MTX2 (GeneID 10651)", "z-score vs non-targeting control": 0.221, "Outcome": "inactive"}
{"target gene": "SLC25A52 (GeneID 147407)", "z-score vs non-targeting control": 0.405, "Outcome": "inactive"}
{"target gene": "TMEM52 (GeneID 339456)", "z-score vs non-targeting control": 1.4, "Outcome": "active"}
{"target gene": "PKD1L1 (GeneID 168507)", "z-score vs non-targeting control": -0.42, "Outcome": "inactive"}
{"target gene": "TUBB (GeneID 203068)", "z-score vs non-targeting control": 1.38, "Outcome": "active"}
{"target gene": "CORO1A (GeneID 11151)", "z-score vs non-targeting control": -0.904, "Outcome": "inactive"}
{"target gene": "SEMG1 (GeneID 6406)", "z-score vs non-targeting control": -0.816, "Outcome": "inactive"}
{"target gene": "SGMS1 (GeneID 259230)", "z-score vs non-targeting control": 0.888, "Outcome": "inactive"}
{"target gene": "DMTN (GeneID 2039)", "z-score vs non-targeting control": -0.784, "Outcome": "inactive"}
{"target gene": "CDCP2 (GeneID 200008)", "z-score vs non-targeting control": -1.25, "Outcome": "active"}
{"target gene": "MC5R (GeneID 4161)", "z-score vs non-targeting control": -1.07, "Outcome": "active"}
{"target gene": "OSGIN1 (GeneID 29948)", "z-score vs non-targeting control": -0.816, "Outcome": "inactive"}
{"target gene": "NETO2 (GeneID 81831)", "z-score vs non-targeting control": -1.26, "Outcome": "active"}
{"target gene": "OR10V1 (GeneID 390201)", "z-score vs non-targeting control": -2.17, "Outcome": "active"}
{"target gene": "TEKTL1 (GeneID 126402)", "z-score vs non-targeting control": 0.71, "Outcome": "inactive"}
{"target gene": "ZDHHC15 (GeneID 158866)", "z-score vs non-targeting control": -1.18, "Outcome": "active"}
{"target gene": "RARB (GeneID 5915)", "z-score vs non-targeting control": -1.38, "Outcome": "active"}
{"target gene": "AXDND1 (GeneID 126859)", "z-score vs non-targeting control": -0.983, "Outcome": "inactive"}
{"target gene": "SKOR1 (GeneID 390598)", "z-score vs non-targeting control": -1.19, "Outcome": "active"}
{"target gene": "NEFM (GeneID 4741)", "z-score vs non-targeting control": 1.22, "Outcome": "active"}
{"target gene": "FAM120B (GeneID 84498)", "z-score vs non-targeting control": 0.194, "Outcome": "inactive"}
{"target gene": "C16orf78 (GeneID 123970)", "z-score vs non-targeting control": -3.04, "Outcome": "active"}
{"target gene": "LCE1E (GeneID 353135)", "z-score vs non-targeting control": -0.821, "Outcome": "inactive"}
{"target gene": "KLK15 (GeneID 55554)", "z-score vs non-targeting control": 1.87, "Outcome": "active"}
{"target gene": "RSU1 (GeneID 6251)", "z-score vs non-targeting control": 0.167, "Outcome": "inactive"}
{"target gene": "FERRY3 (GeneID 57102)", "z-score vs non-targeting control": -0.164, "Outcome": "inactive"}
{"target gene": "CDC50B (GeneID 161291)", "z-score vs non-targeting control": 0.999, "Outcome": "inactive"}
{"target gene": "TMEM176A (GeneID 55365)", "z-score vs non-targeting control": 1.02, "Outcome": "active"}
{"target gene": "BORCS7 (GeneID 119032)", "z-score vs non-targeting control": -0.467, "Outcome": "inactive"}
{"target gene": "SPINT2 (GeneID 10653)", "z-score vs non-targeting control": 1.51, "Outcome": "active"}
{"target gene": "CCR3 (GeneID 1232)", "z-score vs non-targeting control": 1.64, "Outcome": "active"}
{"target gene": "PAXIP1 (GeneID 22976)", "z-score vs non-targeting control": 0.297, "Outcome": "inactive"}
{"target gene": "CAV2 (GeneID 858)", "z-score vs non-targeting control": -0.959, "Outcome": "inactive"}
{"target gene": "CDC26 (GeneID 246184)", "z-score vs non-targeting control": -0.606, "Outcome": "inactive"}
{"target gene": "NSMCE3 (GeneID 56160)", "z-score vs non-targeting control": 0.206, "Outcome": "inactive"}
{"target gene": "NDUFA6 (GeneID 4700)", "z-score vs non-targeting control": -0.498, "Outcome": "inactive"}
{"target gene": "AGBL4 (GeneID 84871)", "z-score vs non-targeting control": -0.713, "Outcome": "inactive"}
{"target gene": "CARMIL1 (GeneID 55604)", "z-score vs non-targeting control": -0.238, "Outcome": "inactive"}
{"target gene": "LZTS3 (GeneID 9762)", "z-score vs non-targeting control": -1.76, "Outcome": "active"}
{"target gene": "KHDRBS3 (GeneID 10656)", "z-score vs non-targeting control": -0.211, "Outcome": "inactive"}
{"target gene": "AIPL1 (GeneID 23746)", "z-score vs non-targeting control": -1.35, "Outcome": "active"}
{"target gene": "FIGN (GeneID 55137)", "z-score vs non-targeting control": 1.86, "Outcome": "active"}
{"target gene": "CDK6 (GeneID 1021)", "z-score vs non-targeting control": 3.97, "Outcome": "active"}
{"target gene": "WSCD2 (GeneID 9671)", "z-score vs non-targeting control": -2.01, "Outcome": "active"}
{"target gene": "ARL10 (GeneID 285598)", "z-score vs non-targeting control": -0.788, "Outcome": "inactive"}
{"target gene": "PSTPIP2 (GeneID 9050)", "z-score vs non-targeting control": 0.244, "Outcome": "inactive"}
{"target gene": "FOXRED1 (GeneID 55572)", "z-score vs non-targeting control": 1.59, "Outcome": "active"}
{"target gene": "TENT4A (GeneID 11044)", "z-score vs non-targeting control": -1.83, "Outcome": "active"}
{"target gene": "HSD3B1 (GeneID 3283)", "z-score vs non-targeting control": 1.68, "Outcome": "active"}
{"target gene": "MACROD1 (GeneID 28992)", "z-score vs non-targeting control": -0.247, "Outcome": "inactive"}
{"target gene": "FNDC3B (GeneID 64778)", "z-score vs non-targeting control": -0.114, "Outcome": "inactive"}
{"target gene": "LEAP2 (GeneID 116842)", "z-score vs non-targeting control": 0.513, "Outcome": "inactive"}
{"target gene": "ZNF630 (GeneID 57232)", "z-score vs non-targeting control": -0.18, "Outcome": "inactive"}

Entries listed so far whose gene name starts with T or t:
{"target gene": "TMEM52 (GeneID 339456)", "z-score vs non-targeting control": 1.4, "Outcome": "active"}
{"target gene": "TUBB (GeneID 203068)", "z-score vs non-targeting control": 1.38, "Outcome": "active"}
{"target gene": "TEKTL1 (GeneID 126402)", "z-score vs non-targeting control": 0.71, "Outcome": "inactive"}
{"target gene": "TMEM176A (GeneID 55365)", "z-score vs non-targeting control": 1.02, "Outcome": "active"}
{"target gene": "TENT4A (GeneID 11044)", "z-score vs non-targeting control": -1.83, "Outcome": "active"}
